System: APOBEC3G in peripheral blood lymphocytes
Test: PBLs incubated with stimulant for 48 hours, Western blot for APOBEC3G (Example 2)
Assay type: cell-based, Human
Details: incubated with stimulant for 48 hours versus unstimulated
Description: Human peripheral blood lymphocytes (PBLs) were isolated from blood and then incubated with anti-CD3 antibody (α-CD3), anti-CD28 antibody (α-CD28), IL-9, IL-12, IL-13, IL-15, or IFN-γ for 48 hours. Cells were lysed, the lysates clarified, and the protein concentration of the lysates was quantitated. Equal amounts of proteins in the lysates were separated by SDS-PAGE. After separation of the proteins by SDS-PAGE, the proteins were transferred to a membrane, and antibody to APOBEC3G was used to detect APOBEC3G protein on the membrane. The results are depicted in FIGS. 1-13.
FIG. 11 depicts the effect of PHA, anti-CD3 antibody, anti-CD28 antibody, and IL-15 on the level of APOBEC3G in peripheral blood lymphocytes. […] Western blot of cell lysates deriving from stimulated and unstimulated peripheral blood lymphocytes. PBLs were isolated from blood and then incubated with the indicated stimulant for 48 hours. Following separation of the proteins by SDS-PAGE, antibody to APOBEC3G was used to detect APOBEC3G protein. As a loading control, anti-β-actin was used to detect β-actin.

Substance: IL-2: cytokine
- level of APOBEC3G in peripheral blood lymphocytes: upregulation
